Amino acid sequences for entries named in this document (tags omitted). A change or cut given only in a name is not applied to a line headed by its entry.
UniProt P0DOV5: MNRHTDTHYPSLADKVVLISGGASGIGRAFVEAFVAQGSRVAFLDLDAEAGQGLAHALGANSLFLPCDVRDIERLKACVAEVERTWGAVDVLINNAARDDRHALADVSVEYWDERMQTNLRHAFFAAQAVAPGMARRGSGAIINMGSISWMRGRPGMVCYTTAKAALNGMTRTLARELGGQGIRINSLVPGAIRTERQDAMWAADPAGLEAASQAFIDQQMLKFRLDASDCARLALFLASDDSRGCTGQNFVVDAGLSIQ

According to publication PMC12133307, “Structure, kinetics, and mechanism of Pseudomonas putida sulfoquinovose dehydrogenase, the first enzyme in the sulfoglycolytic Entner-Doudoroff pathway” (Biochemical Journal, 2025):

Experiments:
[1] = molecular target: T1, PpSQDH (P. putida SQ dehydrogenase; PpSQ1_00090) (Pseudomonas putida, UniProt P0DOV5); details: 0.30 mM NAD+, 0.48 mM enzyme, 50 mM tricine pH 8.5, 150 mM NaCl; no saturation at 16-200 mM
T1 construct: gene PpSQ1_00405

[2] = molecular target: T1, PpSQDH (P. putida SQ dehydrogenase; PpSQ1_00090); details: competitive with NAD+; varied SQ or NAD+, 50 mM tricine pH 8.5, 150 mM NaCl

Compound	NADH formation at 340 nm, UV-vis [1]	product inhibition, NADH absorbance at 340 nm, double reciprocal plots [2]
O=P(O)(O)OC[C@H]1OC(O)[C@H](O)[C@@H](O)[C@@H]1O (some centres unmarked) [G6P, glucose-6-phosphate]	we could detect a low rate of reaction in the presence of the preferred cofactor	
NC(=O)C1=CN([C@@H]2O[C@H](COP(=O)(O)OP(=O)(O)OC[C@H]3O[C@@H](n4cnc5c(N)ncnc54)[C@H](O)[C@@H]3O)[C@@H](O)[C@H]2O)C=CC1 [NADH]		consistent with NADH acting as a competitive inhibitor for NAD^+
